Data source: PubChem BioAssay AID1259414 (Drosophila RNAi Screening Center, 2018)

Purpose: 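Genome-wide screen for host control of endosymbiont load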 (primary screen)
System: Drosophila JW18 cells infected with Wolbachia
Reagents: long dsRNA against Drosophila genes, 0.25 µg dsRNA per well of a 384-well plate
Time to read-out: 5 days
Treatment: cells persistently infected with Wolbachia before knock-down; no added drug
Read-out: 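Automated imaging of bacterial rRNA staining divided by host cell count, reported as plate-normalised robust z-score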
Scale: Wolbachia per cell robust z: higher = more Wolbachia per host cell than the plate typical
Call rule: 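Hit when robust z is 1.5 or more, or -1.5 or less, in at least two of three replicates; excludes dsRNAs with several or no targets, genes not expressed in JW18 and well A1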
In all, the deposit lists about 24,000 reagents; below is an unselected part of those with a known target gene and a result. Of all reagents, about 1,210 (5%) got an active call. 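Inactive calls also include excluded dsRNAs with several or no targets, genes unexpressed in JW18, and well A1, regardless of score.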 A plus sign joins genes that one reagent is predicted to hit.

| gene knocked down | dsRNA | Wolbachia per cell robust z, rep 1 | Wolbachia per cell robust z, rep 2 | Wolbachia per cell robust z, rep 3 | Outcome |
| --- | --- | --- | --- | --- | --- |
| CG1941 | DRSC06802 | -1.06 | -1.99 | -1.08 | inactive |
| Tes | DRSC06996 | 0.374 | -0.161 | -0.288 | inactive |
| CG31875 | DRSC21975 | 0.618 | -0.00607 | -1.07 | inactive |
| Set | DRSC16861 | -3.86 | -0.673 | -0.418 | inactive |
| Prp40 | DRSC00612 | -0.145 | -1.2 | 0.672 | inactive |
| mus312 + CG42307 | DRSC27742 | -0.581 | -1.21 | -0.111 | inactive |
| dwg | DRSC18766 | -0.0809 | 0.328 | 0.666 | inactive |
| dwg | DRSC29174 | 1.3 | -0.926 | 0.272 | inactive |
| CG32808 | DRSC17689 | 0.93 | 1.19 | 1.17 | inactive |
| CG32808 | DRSC28726 | 0.86 | 0.511 | 1.3 | inactive |
| TfIIA-L | DRSC16882 | 0.69 | 0.674 | -0.791 | inactive |
| Mpp6 | DRSC03169 | 1.16 | 1.42 | 1.04 | inactive |
| Mpp6 | DRSC29734 | -0.0761 | -0.414 | 0.0782 | inactive |
| CG13360 | DRSC18536 | -0.107 | 0.316 | 0.689 | inactive |
| CG13360 | DRSC28479 | -0.966 | 1.51 | 1.05 | inactive |
| CG9588 | DRSC16504 | -0.121 | -1.06 | 0.172 | inactive |
| CG12374 | DRSC06143 | -1.87 | -0.477 | -1.03 | inactive |
| CG9522 | DRSC20197 | 0.396 | -0.667 | -0.0657 | inactive |
| CG9522 | DRSC41532 | -1.69 | 0.604 | 0.266 | inactive |
| Buffy | DRSC05957 | -0.975 | -0.0242 | -0.225 | inactive |
| CG3764 | DRSC10375 | -2.73 | -0.708 | -1.85 | active |
| stol | DRSC01956 | 1.13 | -1.26 | -3.18 | inactive |
| rho-7 | DRSC07304 | 0.258 | -0.74 | 0.393 | inactive |
| CG14109 | DRSC10112 | -0.279 | -1.09 | 1.97 | inactive |
| CG14109 | DRSC25337 | 1.47 | -3.28 | -1 | inactive |
| eys | DRSC00402 | -0.91 | -4.99 | 1.05 | inactive |
| eys | DRSC00403 | -0.496 | 0.782 | 0.325 | inactive |
| eys | DRSC00695 | -6.22 | -0.286 | -0.709 | inactive |
| CG7376 | DRSC10829 | 0.28 | 0.0768 | -0.262 | inactive |
| SelT | DRSC02732 | 0.833 | -7.07 | -0.714 | inactive |
| SelT | DRSC26033 | 0.547 | -0.102 | -0.583 | inactive |
| Lime | DRSC06752 | 1.25 | 0.888 | 0.668 | inactive |
| CG5080 | DRSC00677 | 0.429 | 0.0653 | -1.54 | inactive |
| CG42740 + CG2217 | DRSC14141 | -1.71 | -0.725 | -0.212 | inactive |
| CG15073 | DRSC06506 | -3.67 | 0.742 | -1.49 | inactive |
| CG15073 | DRSC27105 | -6.98 | -0.798 | -0.89 | inactive |
| CG5096 | DRSC02813 | -0.415 | -1.18 | -0.457 | inactive |
| sPLA2 | DRSC06041 | -0.266 | 0.547 | 1.07 | inactive |
| sPLA2 | DRSC26194 | -0.554 | -0.402 | -0.237 | inactive |
| Cpr51A | DRSC05969 | -0.906 | 1.04 | 0.414 | inactive |
| CG32259 | DRSC08082 | 0.0367 | 1.07 | 0.0735 | inactive |
| Cfp1 | DRSC18128 | 0.533 | 0.785 | -0.156 | inactive |
| mthl7 | DRSC10852 | 0.76 | 0.318 | 0.637 | inactive |
| CG43737 | DRSC19609 | -1.73 | 1.11 | -1.61 | inactive |
| CG43737 | DRSC19610 | -3.02 | -0.309 | -0.516 | inactive |
| CG43737 | DRSC27659 | 0.602 | -0.67 | -1.47 | inactive |
| CG43737 | DRSC38998 | 0.148 | -0.375 | 0.861 | inactive |

Entries listed so far whose target name begins with S or s:
| gene knocked down | dsRNA | Wolbachia per cell robust z, rep 1 | Wolbachia per cell robust z, rep 2 | Wolbachia per cell robust z, rep 3 | Outcome |
| --- | --- | --- | --- | --- | --- |
| Set | DRSC16861 | -3.86 | -0.673 | -0.418 | inactive |
| stol | DRSC01956 | 1.13 | -1.26 | -3.18 | inactive |
| SelT | DRSC02732 | 0.833 | -7.07 | -0.714 | inactive |
| SelT | DRSC26033 | 0.547 | -0.102 | -0.583 | inactive |
| sPLA2 | DRSC06041 | -0.266 | 0.547 | 1.07 | inactive |
| sPLA2 | DRSC26194 | -0.554 | -0.402 | -0.237 | inactive |
